Assay results from patent publication US20060127324A1, “Chewable oral compositions containing an anti-microbial agent and methods of formulating the compositions to have acceptable germ kill properties and taste” (Cadbury Adams USA LLC, priority 2004, published 2006).

Experiment: Maximum acceptable taste concentration (ATC), population sampling with human subjects
Conditions: mint lozenge having a weight of 1.5 grams

Compound	Maximum Acceptable Taste Concentration (ATC)
CC1CCC(C(C)C)C(O)C1 (centres unmarked) [Menthol]	12,000 ppm
Cc1ccc(C(C)C)c(O)c1 [Thymol]	100 ppm
